Data as given in PMC12514038, “Anti-M1R/B6R antibody characterization and bispecific design for enhanced orthopoxvirus protection” (EMBO Molecular Medicine, 2025).

Experiments:
Conditions in all cases: both partners purified
[1] = molecular target: MPXV M1R, residues A3-G181, His tag (pET21a, E. coli, refolded) (Monkeypox virus, clade IIb 2022 …); assay: crystal structure
[2] = molecular target: T1, MPXV M1R, residues A3-G181, C-terminal 6×His tag (pCAGGS, Expi293F) (Monkeypox virus, clade IIb 2022 …, biotinylated in the BLI assay); assay: SPR
[3] = molecular target: T1, MPXV M1R, residues A3-G181, C-terminal …; assay: BLI

B1: mMM1-16 Fab (Fab, V domains shown)
VH: QIQLQQSGAELARPGASVKLSCKASGYTFITYWIQWVKQRPGQGLEWIGAIYPGDGDTRYTQKFKAKATLTADKSSSTAYMQLSTLTSEDSAVYFCAKGDTYPAAMDYWGQGTSVTVSS
VL: DIQMTQSPASLSASVGETVTITCRTSGNIHNYLAWYQQKQGRSPQLLVNNAKTLADGVPSRFSGSGSGTQYSLKINSLQPEDIGSYYCQHFWITPYTFGGGTKLEIK
binding result [1]: binds

B2: mMM1-16 monoclonal antibody (mouse variable regions, human IgG1/Igκ constant regions) (antibody, V domains shown)
VH: B1 VH
VL: B1 VL
notes: copies: 2 + 2
Kd [2]: < 50 nM

B3: hmMM1-40, humanized mMM1-40 monoclonal antibody (antibody, V domains shown)
VH: QVQLVQSGAEVKKPGASVKVSCKASGYIFTRYWMHWVRQAPGQGLEWMGYINPSTGYTEYNQKFKDRVTMTRDTSTSTVYMELSSLRSEDTAVYYCARSDYTNYVFEYWGQGTLVTVSS
VL: DVVMTQSPLSLPVTLGQPASISCRSSQSLVHSNGNTYLHWFQQRPGQSPRRLIYKVSNRFSGVPDRFSGSGSGTDFTLKISRVEAEDVGVYYCSQSTHVPYTFGGGTKVEIK
notes: copies: 2 + 2
binding result [2]: binds

B4: hmMM1-40 Fab (Fab, V domains shown)
VH: B3 VH
VL: B3 VL
binding result [1]: binds

B5: 7D11, published anti-L1R neutralizing monoclonal antibody (antibody, V domains shown)
VH: QVQLQQSGAELAKPGASVKMSCKASGYTFTRYWMHWVKQRPGQGLEWIGYINPSTGYTEYNQKFKDKATLTADKSSSTVYMQLSSLTSEDSAVYYCARTTVDGYDFAYWGQGTLVTVSA
VL: DMVMSQSPSSLAVSAGEKVSMSCKSSQTLLNSRTRKNYLAWYQQKPGQSPKLLIYWASTRESGVPDRFTGSGSGTDFTLTISSVQAEDLAVYYCKQSYNLWTFGGGTKLEIK
binding result [3]: binds
